# For at least one entry, the source does not settle the construct or the ends of the probe. At least one verdict rests on a figure or table, not on a statement of the authors. Where a protein sequence is shown, tags need not be part of it.
# Target: T1, 2C (MBP removed by TEV in situ, bound to SUVs) (Poliovirus type 1 Mahoney) (UniProt P03300)
# T1 sequence (looked up): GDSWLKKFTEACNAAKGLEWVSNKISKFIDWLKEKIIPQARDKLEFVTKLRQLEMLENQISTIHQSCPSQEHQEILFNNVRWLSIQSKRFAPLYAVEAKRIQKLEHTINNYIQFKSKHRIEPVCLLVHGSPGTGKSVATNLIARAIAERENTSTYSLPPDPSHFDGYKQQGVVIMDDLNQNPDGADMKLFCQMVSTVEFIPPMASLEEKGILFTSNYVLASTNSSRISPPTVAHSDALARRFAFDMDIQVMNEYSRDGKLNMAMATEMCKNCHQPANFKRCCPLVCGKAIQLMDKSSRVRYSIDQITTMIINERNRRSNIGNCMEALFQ
# Assay: binding assay
# Conditions: 5 uM ssRNA, stronger effect than ssDNA; recombinant protein; residues 1128-1456; protein details: His6-MBP cleaved by TEV during assay
sequence,measurement,value
UGAAUGCGGCUAAUCCCAACCU [ssRNA 22-mer (oligo 7)],binding result,binds

# Source: publication PMC11326647, “In vitro reconstitution reveals membrane clustering and RNA recruitment by the enteroviral AAA+ ATPase 2C” (PLOS Pathogens, 2023)
